Results of unrelated studies side by side (data: NIAID ChemDB).

Common to all: whole-cell or culture tests

Lines come from different laboratories, so protocols vary. An empty or dashed field is not shown. ECn: concentration that inhibits the pathogen or its effect by n%. Percent inhibition refers to the dose given; in toxicity tests it is the harm to the cells. Zones are inhibition diameters on agar. MIC50, MIC90 and the like: level of inhibition, or share of isolates inhibited.

compound | agent | strain | cell line | method | endpoint | dose | result
N=C(N)c1ccc(-c2ccc(-c3nc4ccc(C(=N)N)cc4[nH]3)o2)cc1 | Bovine viral diarrhea virus | - | MDBK | - | inhibition | 5 µM | 43%
O=C1c2ccccc2NC(c2ccc(Cl)cc2)N1C1CC1 | Plasmodium berghei | ANKA | - | luciferase | EC50 | - | >20 µM
CC(C)CS[C@H]1C[C@@H](n2cnc3c(N)ncnc32)[C@H](O)[C@@H]1O | Measles virus | - | CV-1 | neutral red | EC50 | - | >100 µg/mL
Clc1cccc(Cn2ccc3nc(-c4ccccc4)nc-3c2)c1 | Bovine viral diarrhea virus | PE515 | MDBK | cytopathic effect | EC50 | - | 0.042 µg/mL
Nc1nc2c(ncn2COC(CO)CO)c(=O)[nH]1 | Rat cytomegalovirus | - | REF | plaque count | EC50 | - | 24 µM
C#C[C@H](O)C1=C[C@@H](n2cnc3c(N)ncnc32)[C@H](O)[C@@H]1O | Tacaribe virus | - | VERO | cytopathic effect | EC50 | - | >50 µg/mL
CO/N=C(/N)c1ccc(-c2ccc(-c3ccc(/C(N)=N\OC)cc3)o2)cc1 | Bovine viral diarrhea virus | - | MDBK | - | inhibition | 5 µM | 0%
Cc1[nH]n(C(=O)c2sc3ccc(Cl)cc3c2Cl)c(=O)c1N=Nc1cccc([N+](=O)[O-])c1 | Pseudomonas aeruginosa | ATCC 27853 | - | agar diffusion / agar | zone | 40 µg/mL | 13 mm
Cc1ccc(Cn2ccc3nc(-c4ccccc4)nc-3c2)cc1 | Bovine viral diarrhea virus | PE515 | MDBK | cytopathic effect | EC50 | - | 0.043 µg/mL
Fc1ccc(Cn2cnc3c(Nc4cccc(F)c4)nc(C(F)(F)F)nc32)cc1 | Rhinovirus | Serotype 1B | M-HELA | plaque count | EC50 | - | 0.9 µM
Nc1ncnc2c1ncn2[C@@H]1C=C(CO)[C@@H](O)[C@H]1O | Tacaribe virus | - | VERO | cytopathic effect | EC50 | - | 1.5 µg/mL
Nc1ncnc2c1ncn2[C@@H]1C[C@H](N)[C@@H](O)[C@H]1O | Measles virus | Chicago | CV-1 | neutral red | EC50 | - | <0.1 µg/mL
CO[C@H]([C@H](C)[C@H](/C=C/c1ccccc1)OC)[C@@H](C)/C=C/C(C)=C/C(=O)N/C=C\C/C=C\C(=O)NCC(=O)O | Saccharomyces cerevisiae | - | - | - | MIC | - | 12.5 µg/mL
CCC[C@H](O)C[C@@H]1CC[C@H](C)CCCCC(=O)N(C)[C@@H](Cc2ccc(OCCO)cc2)C(=O)O1 | Saccharomyces cerevisiae | ERG25 | - | - | MIC | - | 50 µg/mL
Nc1nc2c(ncn2CCC(CO)COP(=O)(O)OP(=O)(O)OP(=O)(O)O)c(=O)[nH]1 | Duck hepatitis B virus | - | Primary duck hepatocytes | - | EC50 | - | 0.7 µM
Nc1ncnc2c1ncn2[C@@H]1CC[C@@H](O)[C@H]1O | Measles virus | Edmonston | CV-1 | neutral red | EC50 | - | >64 µg/mL
N/C(=N\O)c1cc(O)c(O)c(O)c1 | Mouse cytomegalovirus | SMITH | - | plaque count | EC50 | - | 7.12 µM
C/C(=C\C(=O)CCCCCCCCC(=O)O)C[C@@H]1OC[C@H](C[C@H]2O[C@H]2[C@@H](C)[C@H](C)O)[C@@H](O)[C@H]1O | Saccharomyces cerevisiae | - | - | - | MIC | - | >128 µg/mL
COc1c(N2C[C@@H]3CCCN[C@@H]3C2)c(F)cc2c(=O)c(C(=O)O)cn(C3CC3)c12 | Streptococcus pyogenes | 191 isolates | - | - | MIC90 | - | 0.24 µg/mL
Nc1ncnc2c1ncn2[C@@H]1C=C[C@@H](O)[C@H]1O | Measles virus | BIL | CV-1 | cytopathic effect | EC50 | - | >10 µg/mL
FC(F)(F)c1cccc(-c2nc3ccn(Cc4ccc(Br)cc4)cc-3n2)c1 | Bovine viral diarrhea virus | PE515 | MDBK | cytopathic effect | EC50 | - | 0.083 µg/mL
CCN(CC)CCN1C(=O)c2ccccc2NC1c1ccc(OC)c(COc2cc(C(C)C)c(Cl)cc2C)c1 | Plasmodium berghei | ANKA | - | luciferase | EC50 | - | 5.9 µM
CNc1c(F)cc2c(=O)c(C(=O)O)cn(-c3cc(N)c(F)cc3F)c2c1C | Staphylococcus aureus | 27 isolates (methicillin-resistant) | - | - | MIC90 | - | 0.015 µg/mL
Cc1[nH]n(C(=O)c2sc3ccc(Cl)cc3c2Cl)c(=O)c1N=Nc1ccc(F)cc1 | Pseudomonas aeruginosa | ATCC 27853 | - | agar diffusion / agar | zone | 40 µg/mL | 15 mm
C=CCc1ccc(O)c(OC)c1 | Candida glabrata | 3249 | - | turbidity | MIC90 | - | 495 µg/mL
Nc1nc2c(ncn2CC(CO)CCO)c(=O)[nH]1 | Simian varicella-zoster virus | - | VERO | plaque count | EC50 | - | 35 µM
CO[C@H]1/C=C/O[C@@]2(C)Oc3c(C)c(O)c4c(O)c(c(/C=N/N5CCN(C6CCCC6)CC5)c(O)c4c3C2=O)NC(=O)/C(C)=C\C=C\[C@H](C)[C@H](O)[C@@H](C)[C@@H](O)[C@@H](C)[C@H](OC(C)=O)[C@@H]1C | Mycobacterium avium intracellulare | 1023 | - | - | MIC | - | 0.5 µg/mL
N=C(N)c1ccc(-c2ccc(-c3ccc(C(=N)N)cc3)o2)cc1 | Bovine viral diarrhea virus | - | MDBK | - | inhibition | 5 µM | 0%
Cc1c(N)c(F)cc2c(=O)c(C(=O)O)cn(-c3cc(N)c(F)cc3F)c12 | Enterococcus faecium | W1418 | - | - | MIC | - | >64 µg/mL
Nc1nc(=O)n([C@H]2C[C@H](O)[C@@H](CO)O2)cc1/C=C/Cl | Equine herpesvirus 1 | Kentucky (type 1) | PRK | cytopathic effect | EC50 | - | >400 µg/mL
Nc1ccn(C[C@@H](CO)OCP(=O)(O)O)c(=O)n1 | Rat cytomegalovirus | - | REF-5 | plaque count | EC50 | - | 0.5 µM
Fc1cccc(Cn2cnc3c(Nc4cccc(F)c4)nc(C(F)(F)F)nc32)c1 | Rhinovirus | Serotype 54 | M-HELA | plaque count | EC50 | - | >2.5 µM
CC[C@H](O)C1=C[C@@H](n2cnc3c(N)ncnc32)[C@H](O)[C@@H]1O | Tacaribe virus | - | VERO | cytopathic effect | EC50 | - | 50 µg/mL
CC(=O)N1N=C(c2sc3ccc(Cl)cc3c2Cl)OC1c1cccc(Oc2ccccc2)c1 | Pseudomonas aeruginosa | ATCC 27853 | - | agar diffusion / agar | zone | 40 µg/mL | 14 mm
CCCCN1C(=O)c2ccccc2NC1c1ccc(OC)cc1 | Plasmodium berghei | ANKA | - | luciferase | EC50 | - | >20 µM
Fc1cccc(-c2nc3ccn(Cc4ccc(F)cc4F)cc-3n2)c1 | Bovine viral diarrhea virus | - | MDBK | cytopathic effect | EC50 | - | 0.27 µg/mL
COc1ccc2nc(Cl)c(C3OC(c4sc5ccc(Cl)cc5c4Cl)=NN3C(C)=O)cc2c1 | Pseudomonas aeruginosa | ATCC 27853 | - | agar diffusion / agar | zone | 40 µg/mL | 14 mm
Cc1c(NCCO)c(F)cc2c(=O)c(C(=O)O)cn(-c3cc(N)c(F)cc3F)c12 | Enterococcus faecium | ATCC51519 | - | - | MIC | - | 8 µg/mL
Nc1ncnc2c1ncn2[C@H]1CC[C@H](O)[C@@H]1O | Measles virus | - | CV-1 | virus yield | EC50 | - | 3 µg/mL
Cc1ccc(C2Nc3ccccc3C(=O)N2CCCCN2CCOCC2)cc1 | Plasmodium berghei | ANKA | - | luciferase | EC50 | - | >30 µM
Nc1nc2c(ncn2COC(CO)CO)c(=O)[nH]1 | Guinea pig cytomegalovirus | 22122 | GPE | plaque count | EC50 | - | 70 µM
COc1nc(=O)n([C@H]2C[C@H](O)[C@@H](CO)O2)cc1/C=C/Cl | Equine herpesvirus 1 | Kentucky (type 1) | PRK | cytopathic effect | EC50 | - | >200 µg/mL

A second listing of 5 rows from above:

compound,agent,strain,cell line,method,endpoint,dose,result
Fc1ccc(Cn2cnc3c(Nc4cccc(F)c4)nc(C(F)(F)F)nc32)cc1,Rhinovirus,Serotype 1B,M-HELA,plaque count,EC50,-,0.9 µM
COc1nc(=O)n([C@H]2C[C@H](O)[C@@H](CO)O2)cc1/C=C/Cl,Equine herpesvirus 1,Kentucky (type 1),PRK,cytopathic effect,EC50,-,>200 µg/mL
N=C(N)c1ccc(-c2ccc(-c3ccc(C(=N)N)cc3)o2)cc1,Bovine viral diarrhea virus,-,MDBK,-,inhibition,5 µM,0%
Cc1ccc(Cn2ccc3nc(-c4ccccc4)nc-3c2)cc1,Bovine viral diarrhea virus,PE515,MDBK,cytopathic effect,EC50,-,0.043 µg/mL
Cc1ccc(C2Nc3ccccc3C(=O)N2CCCCN2CCOCC2)cc1,Plasmodium berghei,ANKA,-,luciferase,EC50,-,>30 µM